The values below come from publication PMC3210103.

The chains behind the UniProt entries cited, without tags or fusion partners. Where a name states a change or a piece, a line headed by the entry shows the natural chain unless it says otherwise.
UniProt Q16665: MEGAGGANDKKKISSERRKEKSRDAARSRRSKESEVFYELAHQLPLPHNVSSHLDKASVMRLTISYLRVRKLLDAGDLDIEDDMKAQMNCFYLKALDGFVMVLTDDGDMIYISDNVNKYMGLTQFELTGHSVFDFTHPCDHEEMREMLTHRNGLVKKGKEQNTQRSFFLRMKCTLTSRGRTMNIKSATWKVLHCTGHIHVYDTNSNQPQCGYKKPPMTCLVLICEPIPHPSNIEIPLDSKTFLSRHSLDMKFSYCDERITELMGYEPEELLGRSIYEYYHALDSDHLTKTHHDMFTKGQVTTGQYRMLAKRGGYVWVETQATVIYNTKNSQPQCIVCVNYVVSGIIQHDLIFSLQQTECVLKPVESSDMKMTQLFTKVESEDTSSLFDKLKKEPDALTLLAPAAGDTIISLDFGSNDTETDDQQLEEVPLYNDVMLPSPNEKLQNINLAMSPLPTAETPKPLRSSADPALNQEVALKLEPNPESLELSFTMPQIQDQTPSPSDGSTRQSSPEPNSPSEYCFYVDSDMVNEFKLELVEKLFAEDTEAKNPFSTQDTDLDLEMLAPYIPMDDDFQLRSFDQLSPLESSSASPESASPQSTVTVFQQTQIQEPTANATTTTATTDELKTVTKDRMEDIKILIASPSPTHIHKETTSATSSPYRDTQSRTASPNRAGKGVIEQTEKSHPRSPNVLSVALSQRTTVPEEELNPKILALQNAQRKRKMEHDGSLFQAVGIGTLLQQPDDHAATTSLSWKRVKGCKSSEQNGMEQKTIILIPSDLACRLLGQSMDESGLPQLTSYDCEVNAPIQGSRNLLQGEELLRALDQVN

For one series, the target named is HIF-1α (c-myc-tagged) (UniProt Q16665). Briefly: EMSA supershift. As to conditions: anti-c-myc gives C2, partial shift of C1, normal mouse serum does not; 10 μg nuclear extract, ~100,000 cpm probe, 4°C, 30 min; antibody pre-incubated 1 h at 4°C; salt and pH not given; protein in an extract; residues 1-826; protein details: c-myc; label: 32P.
The next series concerns Vpr (HIV-1). Briefly: EMSA supershift. As to conditions: anti-Vpr gives C2 and abolishes C1, non-immune serum does not, direct contact not shown; 10 μg nuclear extract, ~100,000 cpm probe, 4°C, 30 min; antibody pre-incubated 1 h at 4°C; salt and pH not given; protein in an extract; label: 32P.

For at least one entry, the source does not settle the construct or the ends of the probe. Where cells or extracts were used, other partners may take part.

As for “TCCCAGGGAGGCGTGGCCTGG / CCAGGCCACGCCTCCCT [HIV-1 LTR GC-rich probe (-82/-61)]”, the binding result with HIF-1α (c-myc-tagged) and with Vpr (HIV-1) was “binds” throughout.
